From patent US20050244490A1, “Dosing methods for beta-D-2',3'-dideoxy-2',3'-didehydro-5-fluorocytidine antiviral therapy” (priority 2003, published 2005)

Test system: acutely HIV-1 infected human PBM cells
Assay: Median effect / combination index study with Racivir
Type: cell-based
Conditions: Day 5; assays (1), (2), (3)

Compound | m ± SE (slope of median effect plot)
Nc1nc(=O)n(C2C=CC(CO)O2)cc1F [β-D-D4FC, β-D-2′,3′-Didehydro-2′,3′-dideoxy-5-fluorocytidine] | 1.1 ± 0.12 and 1.3 ± 0.20
OC[C@@H]1CC[C@H](n2cnc3c(O)ncnc32)O1 [DDI, 2′,3′-dideoxyinosine] | 1.2 ± 0.02
Cc1cn([C@H]2C=C[C@@H](CO)O2)c(=O)[nH]c1=O [D4T, 2′,3′-didehydro-2′,3′-dideoxythymidine] | 1.2 ± 0.08
Nc1nc(=O)n(C2CSC(CO)O2)cc1F (stereo not shown) [Racivir] | 0.87 ± 0.14 and 1.4 ± 0.14 and 0.88 ± 0.10

Values joined by “and” are separate entries in the source; they are usually repeats but may differ in a detail not shown here. Equal entries are not always repeated.
